We go through five molecules from publication PMC6672008, “Small molecule degraders of the hepatitis C virus protease reduce susceptibility to resistance mutations” (Nature Communications, 2019).

By UniProt entry, the sequences of proteins in these tests, tags left out. Residues count along the entry.
UniProt Q99IB8, 1031-1661 limits assumed: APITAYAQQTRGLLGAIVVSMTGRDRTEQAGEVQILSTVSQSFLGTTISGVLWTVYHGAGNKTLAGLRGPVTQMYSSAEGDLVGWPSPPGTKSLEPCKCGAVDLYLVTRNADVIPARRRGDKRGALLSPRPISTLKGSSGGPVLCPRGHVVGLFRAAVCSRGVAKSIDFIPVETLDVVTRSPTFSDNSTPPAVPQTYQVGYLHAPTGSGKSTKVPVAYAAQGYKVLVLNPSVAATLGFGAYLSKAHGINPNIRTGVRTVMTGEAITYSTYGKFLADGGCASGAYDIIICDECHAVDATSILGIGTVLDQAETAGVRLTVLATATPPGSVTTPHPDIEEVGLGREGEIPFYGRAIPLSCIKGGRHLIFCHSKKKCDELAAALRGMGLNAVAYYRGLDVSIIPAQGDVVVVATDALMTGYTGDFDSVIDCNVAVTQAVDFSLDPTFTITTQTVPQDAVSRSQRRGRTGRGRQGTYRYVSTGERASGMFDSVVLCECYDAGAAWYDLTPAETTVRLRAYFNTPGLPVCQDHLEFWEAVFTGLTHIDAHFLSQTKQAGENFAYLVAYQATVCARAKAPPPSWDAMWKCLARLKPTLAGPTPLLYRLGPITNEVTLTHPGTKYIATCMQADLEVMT
UniProt Q99IB8, 1662-1715 partner limits assumed: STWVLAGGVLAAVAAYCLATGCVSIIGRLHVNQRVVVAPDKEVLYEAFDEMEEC

Molecules are shown by their SMILES. “And” between values parts separate entries of the source, which are not always exact repeats. Equal values may be shown once.

In one assay the target is HCV NS3/4A protease (Hepatitis C virus genotype 2a, UniProt Q99IB8). The assay is described as follows: biochemical. The conditions noted are these: NS3/4A protease inhibition IC50, average value reported, average of n ≥ 3 independent experiments; cleavage measured 1 h at 30 °C.
On to `CCC[C@H](NC(=O)[C@@H]1[C@H]2CCC[C@H]2CN1C(=O)[C@@H](NC(=O)[C@@H](NC(=O)c1cnc(C(=O)NCCCCCCNc2cccc3c2CN(C2CCC(=O)NC2=O)C3=O)cn1)C1CCCCC1)C(C)(C)C)C(=O)C(=O)NC1CC1` (stereo partly drawn) [DGY-03-081], for which the IC50 (usually the concentration needed to halve the response being measured) was found to be 0.385 µM.

`CCC[C@H](NC(=O)[C@@H]1[C@H]2CCC[C@H]2CN1C(=O)[C@@H](NC(=O)[C@@H](NC(=O)c1cnc(C(=O)NCCOCCOCCNc2cccc3c2C(=O)N(C2CCC(=O)NC2=O)C3=O)cn1)C1CCCCC1)C(C)(C)C)C(=O)C(=O)NC1CC1` (stereo partly drawn) [DGY-04-035]: the IC50 was 0.296 µM and 0.265 µM. Molecule `CCC[C@H](NC(=O)[C@@H]1[C@H]2CCC[C@H]2CN1C(=O)[C@@H](NC(=O)[C@@H](NC(=O)c1cnc(C(=O)NCCOCCOCCNc2cccc3c2C(=O)N(C2CCC(=O)N(C)C2=O)C3=O)cn1)C1CCCCC1)C(C)(C)C)C(=O)C(=O)NC1CC1` (stereo partly drawn) [DGY-04-035-BUMP] displayed an IC50 of 0.277 µM. The same measure, in the same setting: for `CCC[C@H](NC(=O)[C@@H]1[C@H]2CCC[C@H]2CN1C(=O)[C@@H](NC(=O)[C@@H](NC(=O)c1cnc(C(=O)NCCOCCOCCOc2cc3c4c(cccc4c2)C(=O)N(C2CCC(=O)N(C)C2=O)C3=O)cn1)C1CCCCC1)C(C)(C)C)C(=O)C(=O)NC1CC1` (stereo partly drawn) [DGY-08-097-BUMP] the value was 0.076 µM.

Staying with this assay, now noted: NS3/4A protease inhibition IC50, single experiments, individual independent experiments (source data).
On to `CCC[C@H](NC(=O)[C@@H]1[C@H]2CCC[C@H]2CN1C(=O)[C@@H](NC(=O)[C@@H](NC(=O)c1cnc(C(=O)NCCOCCOCCOc2cc3c4c(cccc4c2)C(=O)N(C2CCC(=O)NC2=O)C3=O)cn1)C1CCCCC1)C(C)(C)C)C(=O)C(=O)NC1CC1` (stereo partly drawn) [DGY-08-097], for which the IC50 was 0.258 µM and 0.192 µM and 0.291 µM. In the case of `CCC[C@H](NC(=O)[C@@H]1[C@H]2CCC[C@H]2CN1C(=O)[C@@H](NC(=O)[C@@H](NC(=O)c1cnc(C(=O)NCCOCCOCCOc2cc3c4c(cccc4c2)C(=O)N(C2CCC(=O)N(C)C2=O)C3=O)cn1)C1CCCCC1)C(C)(C)C)C(=O)C(=O)NC1CC1` (stereo partly drawn) [DGY-08-097-BUMP], the 50% inhibitory concentration (IC50) was 0.118 µM and 0.032 µM and 0.078 µM.
